Taken from: PubChem BioAssay AID1259414 (Drosophila RNAi Screening Center, 2018)

Assay: 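Host factors increasing or decreasing Wolbachia levels in cultured fly cells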 (primary screen)
Cells: Drosophila JW18 cells infected with Wolbachia
Reagent: long dsRNA against Drosophila genes, 0.25 µg dsRNA per well of a 384-well plate
Time to read-out: 5 days
Challenge: cells persistently infected with Wolbachia before knock-down; no added drug
Detection: 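Automated imaging of bacterial rRNA staining divided by host cell count, reported as plate-normalised robust z-score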
Direction: Wolbachia per cell robust z: higher = more Wolbachia per host cell than the plate typical
Hit rule: 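Hit when robust z is 1.5 or more, or -1.5 or less, in at least two of three replicates; excludes dsRNAs with several or no targets, genes not expressed in JW18 and well A1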
The deposit covers about 24,000 reagents; this is an unselected part of those with a known target gene and a result. Over the whole deposit, about 1,210 (5%) got an active call. 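Inactive calls also include excluded dsRNAs with several or no targets, genes unexpressed in JW18, and well A1, regardless of score.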 Unmarked entries are inactive. Names joined by + are all predicted targets of the reagent. Reagent sequences are not shown.

The first 7 entries as a preview:
predicted target	dsRNA	Wolbachia per cell robust z, rep 1	Wolbachia per cell robust z, rep 2	Wolbachia per cell robust z, rep 3
Kaz1-ORFB	DRSC08669	-1.3	-0.0268	0.0423
Rgl (Ral guanine nucleotide dissociation stimulator-like)	DRSC11267	0.139	-0.729	0.632
lms (lateral muscles scarcer)	DRSC06387	0.923	0.644	0.627
lms (lateral muscles scarcer)	DRSC27541	-1.34	0.289	-1.86
CG33258	DRSC09415	0.635	0.0954	-1.27
CG33258	DRSC23590	-0.473	-0.723	-0.443
CG10898	DRSC14279	1.14	-0.361	0.292

Main list, from the first entry:
predicted target	dsRNA	Wolbachia per cell robust z, rep 1	Wolbachia per cell robust z, rep 2	Wolbachia per cell robust z, rep 3
Kaz1-ORFB	DRSC08669	-1.3	-0.0268	0.0423
Rgl (Ral guanine nucleotide dissociation stimulator-like)	DRSC11267	0.139	-0.729	0.632
lms (lateral muscles scarcer)	DRSC06387	0.923	0.644	0.627
lms (lateral muscles scarcer)	DRSC27541	-1.34	0.289	-1.86
CG33258	DRSC09415	0.635	0.0954	-1.27
CG33258	DRSC23590	-0.473	-0.723	-0.443
CG10898	DRSC14279	1.14	-0.361	0.292
hig (hikaru genki)	DRSC07628	-0.518	0.197	0.427
hig (hikaru genki)	DRSC22827	-0.196	-0.721	-0.0363
hig (hikaru genki)	DRSC22899	0.396	-1.59	-0.0171
hig (hikaru genki)	DRSC26925	-0.419	0.471	-0.768
Snr1 (Snf5-related 1)	DRSC12369	-0.0589	0.00654	-0.658
hpRNA:CR33940 + CG32212	DRSC09618	-1.75	-0.912	-0.272
CG15177	DRSC12557	-3.63	-0.591	-2.07
CG15177	DRSC24687	0.617	0.122	-0.211
klhl10 (kelch like family member 10)	DRSC37921	-0.607	0.0976	1.17
klhl10 (kelch like family member 10)	DRSC38784	-0.871	0.733	1.68
CG31910	DRSC28186	0.547	0.721	-0.0736
deltaCOP (Coat Protein (coatomer) delta)	DRSC18760	4.74 (active)	3.27	2.76
deltaCOP (Coat Protein (coatomer) delta)	DRSC25961	1.26 (active)	2.39	3.01
CG34169	DRSC01579	-0.948	0.223	-0.261
fab1 + CG33981	DRSC28045	-0.0304	-0.28	0.000907
CG34203	DRSC38897	-1.68	-1.58	0.299
CG17108	DRSC02576	-1.23	-0.676	-0.803
CG17108	DRSC22214	0.833	0.958	-0.307
CG17108	DRSC25301	-1.36	-1.24	-2.36
UQCR-6.4 (Ubiquinol-cytochrome c reductase 6.4 kDa subunit)	DRSC06454	-1.63	-0.264	0.235
UQCR-6.4 (Ubiquinol-cytochrome c reductase 6.4 kDa subunit)	DRSC28738	1.09	0.565	-0.433
Adck1 (aarF domain containing kinase 1)	DRSC04394	-0.0456	-1.74	0.0989
hay (haywire)	DRSC11354	-0.0759	-3.52	-0.799
Gr59e (Gustatory receptor 59e)	DRSC04276	-1.13	-0.875	-0.722
CG31954	DRSC00580	-0.733	0.109	-0.777
CG31954	DRSC28191	-0.245	0.0254	-0.476
Culd (CUB and LDLa domain)	DRSC10262	0.651	-0.584	0.978
Hex-t1 (Hexokinase testis 1)	DRSC16701	-1.96	0.586	-1.14
Hex-t1 (Hexokinase testis 1)	DRSC26127	-1.81	-0.243	-1.35
bdwf (bedwarfed)	DRSC15532	0.311	-0.12	-5.23
RpS14b (Ribosomal protein S14b)	DRSC18711	0.847	2.94	0.643
Cpr47Ed (Cuticular protein 47Ed)	DRSC07331	-0.849	-0.978	-0.47
mr (morula)	DRSC04332	0.57	0.696	-0.078
mr (morula)	DRSC22856	0.317	-1.21	0.147
mr (morula)	DRSC29384	0.915	1.07	0.487
sit (stuck in traffic)	DRSC15760	-1.01	-1.84	-0.635
sit (stuck in traffic)	DRSC25250	-0.723	-2.84	-0.0255
CG4238	DRSC00644	0.114	-0.882	0.0311
Taldo (Transaldolase)	DRSC04320	-0.603	1.44	0.647
Taldo (Transaldolase)	DRSC27470	0.483	0.841	0.14
CG33286	DRSC11691	0.48	-1.23	0.317
CG33286	DRSC26119	-1.34	-1.75	-0.763
CG14443	DRSC17936	0.314	-0.6	-1.46
CG33278	DRSC10336	-0.997	-2.8	-0.208
CG33278	DRSC26564	1.25	-0.841	-0.068
Gpo2 (Glycerophosphate oxidase 2)	DRSC06822	-0.239	-0.666	-0.289
CG3065	DRSC24998	0.427	0.64	-0.777
CG32453	DRSC21673	0.309	-1.13	0.516
Noc1 (Nucleolar complex protein 1)	DRSC10921	0.336	-0.507	-0.298
Ste:CG33238 + Ste:CG33245 + Ste:CG33241 + 11 more	DRSC21260	-0.371	-0.924	-1.05
CG17944	DRSC12572	-2.39	-1.22	-0.458
mthl1 (methuselah-like 1)	DRSC19905	0.756	0.825	0.38
Scp2 (Sarcoplasmic calcium-binding protein 2)	DRSC13166	-0.88	0.203	-0.302
Scp2 (Sarcoplasmic calcium-binding protein 2)	DRSC16854	0.319	-1.14	1.49
CG42304 + Snup	DRSC08277	-0.361	-2.01	-0.625
CG42304 + Snup	DRSC23772	-1.56	0.383	-0.261
CG42304 + Snup	DRSC39092	-0.281	-1.26	-1.26
CG17047	DRSC06648	0.293	-0.405	0.956
CG33170	DRSC22366	0.87	0.21	0.57
Trc8 (TRC8 ring finger protein)	DRSC15437	0.417	-1.21	-5.44
Trc8 (TRC8 ring finger protein)	DRSC28575	0.508	-0.662	-1.29
